Data published in paper PMC7969873 (Cell Reports, 2021).

Test system: SARS-CoV-2
Type: cell-based
Conditions: Vero E6 cells; 48 hpi; hydroxychloroquine and EIDD-2801 10 μM

B1: IFN-β: interferon (IFN)-β (protein, UniProt P01574 22-187, looked up)
Interferon beta: MSYNLLGFLQRSSNFQCQKLLWQLNGRLEYCLKDRMNFDIPEEIKQLQQFQKEDAALTIYEMLQNIFAIFRQDSSSTGWNETIVENLLANVYHQINHLKTVLEEKLEKEDFTRGKLMSSLHLKRYYGRILHYLKAKEYSHCAWTIVRVEILRNFYFINRLTGYLRN
In the case of B1, the “blocking of SARS-CoV-2 infection (IFA)” value is reported as “effectively blocked”.
